Anti-infective test results gathered from many reports (values: NIAID ChemDB through PubChem).

All rows: toxicity to cultured cells; cell line: CEM; measure: CC50

CCn: concentration that lowers growth or viability of the cells by n%. Blank or dashed fields: not listed here. Lines come from different laboratories, so protocols vary.

Cc1ccc(S(=O)(=O)O)cc1.N/C(=N\N=C\c1ccc(O)c(O)c1)NO ; value: 43 µg/mL
O=c1[nH]c2ccc(Cc3ccccc3F)cc2o1 ; value: 4.5 µg/mL
Cc1cc(S(=O)(=O)Nc2nnc3ccccn23)c(S)cc1Cl ; value: >200 µM
CC(C)CN(C[C@@H](O)[C@H](Cc1ccccc1)NC(=O)Cc1c[nH]c2ccccc12)S(=O)(=O)c1ccc(Br)cc1 ; method: MTT ; value: 80.4 µM
CCCCCCCCCCCCCCCC(=O)OCC(COC(=O)CCCCCCCCCCCCCCC)OC(=O)CCC(=O)O[C@@H](C[C@@H](Cc1ccccc1)C(=O)N[C@H]1c2ccccc2C[C@H]1OC(=O)CCC(=O)OC(COC(=O)CCCCCCCCCCCCCCC)COC(=O)CCCCCCCCCCCCCCC)CN1CCN(Cc2cccnc2)C[C@H]1C(=O)NC(C)(C)C ; method: MTT ; value: >100 µM
CC(=O)ONc1ccc(S(=O)(=O)N(CC(C)C)C[C@@H](O)[C@H](Cc2ccccc2)NC(=O)Cc2c[nH]c3ccccc23)cc1 ; method: MTT ; value: >100 µM
Cc1cc(Cl)cc2c1S(=O)(=O)n1c(C)cnc1S2 ; value: >200 µM
O=C(NC(CC1CCCC1)C(=O)O)c1ccccc1SSc1ccccc1C(=O)NC(CC1CCCC1)C(=O)O ; value: 47 µM
Cc1c(O)cccc1C(=O)N[C@@H](CSc1ccccc1)[C@@H](CN1C[C@H]2CCCC[C@H]2C[C@H]1C(=O)NC(C)(C)C)OC(=O)CCCCOc1ccc(C[C@H](NC(=O)OC(C)(C)C)C(=O)O)cc1 ; method: MTT ; value: >100 µM
COc1cc2ccnc3c2c(c1OS(C)(=O)=O)N(C)C=C3 ; value: 7.3 µM
CC(C)CN(C[C@@H](O)[C@H](Cc1ccccc1)NC(=O)CCCN1C(=O)c2ccccc2C1=O)S(=O)(=O)c1ccc(Br)cc1 ; method: MTT ; value: >100 µM
CC(C)C[C@@H](/C=C/C(=O)O)NC(=O)c1ccccc1SSc1ccccc1C(=O)N[C@H](/C=C/C(=O)O)CC(C)C ; value: 53 µM
CC[C@H](C)[C@H](NC(=O)CN(CC(Cl)CCl)C(=O)[C@H](Cc1ccccc1)NC(=O)OC(C)(C)C)C(=O)N[C@H](C(=O)OC)C(C)C ; value: >33.3 µg/mL
COc1cc2ccnc3c2c(c1OS(=O)(=O)c1ccccc1)N(C)C=C3 ; value: 2 µM
CC(=O)ONc1ccc(S(=O)(=O)N(Cc2ccccc2)C[C@@H](O)[C@H](Cc2ccccc2)NC(=O)[C@H](C(C)C)N2C(=O)c3ccccc3C2=O)cc1 ; method: MTT ; value: >100 µM
C=CCN(CC(=O)N[C@H](C(=O)N[C@H](C(=O)OC)C(C)C)[C@@H](C)CC)C(=O)[C@H](Cc1ccccc1)NC(=O)[C@H](C)N ; value: >100 µg/mL
CC(=O)n1c(=O)sc2cc(C(=O)c3cccc(F)c3)ccc21 ; value: 14 µg/mL
[N-]=[N+]=N[C@H]1C[C@H](CO)O[C@@H]1n1cc(F)c(N)nc1=O ; method: trypan blue ; value: >100 µM
C=CCN(CC(=O)N[C@H](C(=O)N[C@H](C(=O)OC)C(C)C)[C@@H](C)CC)C(=O)[C@H](Cc1ccccc1)NC(=O)[C@H](C)NC(=O)OC(C)(C)C ; value: 35.7 µg/mL
CC(C)CN(C[C@@H](O)[C@H](Cc1ccccc1)NC(=O)COc1ccc2ccccc2c1)S(=O)(=O)c1ccc(Br)cc1 ; method: MTT ; value: 65.8 µM
CSS[C@@H]1[C@H](O)[C@@H](CO)O[C@H]1n1ccc(=O)[nH]c1=O ; method: MTT ; value: 160 µM
CCCCCCCC/C=C\CCCCCCCC(=O)OCC(COC(=O)CCCCCCC/C=C\CCCCCCCC)OC(=O)CCC(=O)O[C@@H]1Cc2ccccc2[C@@H]1NC(=O)[C@H](Cc1ccccc1)C[C@H](O)CN1CCN(Cc2cccnc2)C[C@H]1C(=O)NC(C)(C)C ; method: MTT ; value: >100 µM
Cc1cn([C@@H]2CC[C@H](COC(=O)CCCCCCCCC(=O)OC[C@H]3O[C@@H](n4cc(C)c(=O)[nH]c4=O)C[C@@H]3N=[N+]=[N-])O2)c(=O)[nH]c1=O ; value: >1 µM
CCCN(C[C@@H](O)[C@H](Cc1ccccc1)NC(=O)[C@H](C)CS(C)(=O)=O)S(=O)(=O)c1ccccc1 ; value: 438 µM
CC(C)C[C@@H](C(=O)N[C@@H](Cc1ccccc1)[C@H](O)CN(CC(C)C)S(=O)(=O)c1ccc(Br)cc1)N1C(=O)c2ccccc2C1=O ; method: MTT ; value: >100 µM
Cn1cc(C(=O)O)c(=O)c2cc(F)c(N3CC=C(c4ccccc4)CC3)c(C(F)(F)F)c21 ; method: MTT ; value: 2.1 µM
CCCN1C=Cc2nccc3cc(OC)c(OC)c1c23 ; value: 7.6 µM
CCCCOC[C@H](NC(=O)c1ccccc1SSc1ccccc1C(=O)N[C@@H](COCCCC)C(=O)O)C(=O)O ; value: >100 µM
CC(=O)ONc1ccc(S(=O)(=O)N(Cc2ccccc2)C[C@@H](O)[C@H](Cc2ccccc2)NC(=O)Cc2c[nH]c3ccccc23)cc1 ; method: MTT ; value: >100 µM
COc1ccc(/C=N/N=C(/N)NO)cc1OC ; value: 62 µg/mL
Cc1cc(S(=O)(=O)Nc2nnc3cc(C(F)(F)F)cc(C)n23)c(S)cc1Cl ; value: 108 µM
O=C(c1cccc(I)c1)c1ccc2[nH]c(=O)sc2c1 ; value: >8 µg/mL
C=CCN(CC(=O)N[C@H](C(=O)N[C@H](C(=O)OC)C(C)C)[C@@H](C)CC)C(=O)[C@H](Cc1ccccc1)NC(=O)[C@H](C)NC(=O)[C@H](C)NC(=O)[C@H](CO)NC(=O)OC(C)(C)C ; value: >100 µg/mL
CSS[C@@H]1[C@H](O)[C@@H](CO)O[C@H]1n1ccc(N)nc1=O ; method: MTT ; value: 82 µM
CCCCCCCC/C=C\CCCCCCCC(=O)O[C@H](CN1C[C@H]2CCCC[C@H]2C[C@H]1C(=O)NC(C)(C)C)[C@H](Cc1ccccc1)NC(=O)[C@H](CC(N)=O)NC(=O)c1ccc2ccccc2n1 ; method: MTT ; value: >100 µM
CC(C)CN(C[C@@H](O)[C@H](Cc1ccccc1)NC(=O)[C@H](C(C)C)N1C(=O)c2ccccc2C1=O)S(=O)(=O)c1ccc(Br)cc1 ; method: MTT ; value: >100 µM
CCC[C@H](NC(=O)c1ccccc1SSc1ccccc1C(=O)N[C@@H](CCC)C(=O)O)C(=O)O ; value: >80 µM
CCCCN1C=Cc2nccc3cc(OC)c(OC)c1c23 ; value: 5.3 µM
COc1ccc(S(=O)(=O)N(CCC(C)C)C[C@@H](O)[C@H](Cc2ccccc2)NC(=O)[C@H](C)CS(C)(=O)=O)cc1 ; value: 90 µM
C=CCN(C(=O)[C@H](Cc1ccccc1)NC(=O)[C@H](C)NC(=O)[C@H](C)NC(=O)OC(C)(C)C)C(C)C(=O)N[C@H](C(=O)N[C@H](C(=O)OC)C(C)C)[C@@H](C)CC ; value: 2.9 µg/mL
N#Cc1cc2c(cc1Cl)Sc1nccn1S2(=O)=O ; value: 1.1 µM
Cc1cn([C@@H]2CC[C@H](COC(=O)CCCCCCCCCCCCC(=O)OC[C@H]3O[C@@H](n4cc(C)c(=O)[nH]c4=O)C[C@@H]3N=[N+]=[N-])O2)c(=O)[nH]c1=O ; value: >1 µM
CC(C)CCN(C[C@@H](O)[C@H](Cc1ccccc1)NC(=O)[C@H](C)CS(C)(=O)=O)S(=O)(=O)c1ccccc1 ; value: >1000 µM
O=C(c1cccc(Br)c1)c1ccc2[nH]c(=O)sc2c1 ; value: 10 µg/mL
O=C1Nc2ccc(Cl)cc2[C@@](C#CC2CC2)(C(F)(F)F)O1 ; method: MTT / absorbance ; value: >50 µM
NC(=O)C[C@H](NC(=O)c1ccccc1SSc1ccccc1C(=O)N[C@@H](CC(N)=O)C(N)=O)C(N)=O ; value: 21 µM
CCCCCCC[n+]1ccc2cc(OC)c(OC)c3c2c1C=CN3 ; value: 3.5 µM
COc1ccc(/C=N/N=C(\N)NO)c(OC)c1C.Cc1ccc(S(=O)(=O)O)cc1 ; value: 40 µg/mL
COc1ccc(S(=O)(=O)N(CC(C)C)C[C@@H](O)[C@H](Cc2ccccc2)NC(=O)[C@H](C)CS(C)(=O)=O)cc1OC ; value: 77 µM

4 of the rows above, restated:

structure | method | value
O=C(c1cccc(I)c1)c1ccc2[nH]c(=O)sc2c1 |  | >8 µg/mL
CCCN(C[C@@H](O)[C@H](Cc1ccccc1)NC(=O)[C@H](C)CS(C)(=O)=O)S(=O)(=O)c1ccccc1 |  | 438 µM
O=c1[nH]c2ccc(Cc3ccccc3F)cc2o1 |  | 4.5 µg/mL
CC[C@H](C)[C@H](NC(=O)CN(CC(Cl)CCl)C(=O)[C@H](Cc1ccccc1)NC(=O)OC(C)(C)C)C(=O)N[C@H](C(=O)OC)C(C)C |  | >33.3 µg/mL